A mixed list of measured activities; the numbers were collected in NIAID ChemDB.

All rows: growth or infection tests; agent: Aspergillus flavus; read-out: MIC50

MIC50, MIC90 and the like: level of inhibition, or share of isolates inhibited. a–b is a range or a potency band. Neighbouring rows are from separate reports. An empty or dashed field is not shown.

compound,method,value
CCc1ccc(O)cc1,agar,132 µg/mL
C[C@@H](c1ncncc1F)[C@](O)(Cn1cncn1)c1ccc(F)cc1F,,0.5–1 µg/mL
CNC(=S)N/N=C(\C)c1ccc(-n2ccnc2)cc1,broth dilution,>915 µM
OCCCCNc1ccc2ncccc2c1,turbidity,2 µg/mL
CC(=O)N/N=C(\C)c1ccc(-n2ccnc2)cc1,broth dilution,>1030 µM
CCC(C)CC(C)CCCCCCCCC(=O)N[C@H]1C[C@@H](O)[C@H](NCCN)NC(=O)[C@@H]2[C@@H](O)CCN2C(=O)[C@H]([C@H](O)CCN)NC(=O)[C@H]([C@H](O)[C@@H](O)c2ccc(O)cc2)NC(=O)[C@@H]2C[C@@H](O)CN2C(=O)[C@H]([C@@H](C)O)NC1=O,,0.03–0.25 µg/mL
COc1cc(C(C)=O)ccc1O,agar,>1000 µg/mL
C[C@@H](c1nc(-c2ccc(C#N)cc2)cs1)[C@](O)(Cn1cncn1)c1cc(F)ccc1F,,0.5–2 µg/mL
O=C(N/N=C\n1ccnc1)c1ccc([N+](=O)[O-])cc1,broth dilution,484.2 µM
CC(C)(O)CCCNc1cccc2cccnc12,turbidity,15.6 µg/mL
CCc1ccc(O)c(OC)c1,agar,227 µg/mL
O=C(N/N=C/c1ccc(-n2ccnc2)cc1)c1ccc([N+](=O)[O-])cc1,broth dilution,>745.6 µM
COc1cc(C(=O)O)ccc1O,agar,>1000 µg/mL
CC[C@@H]([C@H](C)O)n1ncn(-c2ccc(N3CCN(c4ccc(OC[C@@H]5CO[C@@](Cn6cncn6)(c6ccc(F)cc6F)C5)cc4)CC3)cc2)c1=O,,0.125–0.25 µg/mL
COc1cccc(OC)c1O,agar,>1000 µg/mL
C/C(=N\NC(=O)c1ccc(Cl)cc1)c1ccc(-n2ccnc2)cc1,broth dilution,>737.9 µM
COc1ccccc1O,agar,731 µg/mL
CC(=O)N/N=C/c1cnc[nH]1,broth dilution,1643 µM

Repeating the first 2 entries:

compound,method,value
CCc1ccc(O)cc1,agar,132 µg/mL
C[C@@H](c1ncncc1F)[C@](O)(Cn1cncn1)c1ccc(F)cc1F,,0.5–1 µg/mL